Experimental data as given in the NIST ThermoML archive (doi:10.1021/acs.jced.8b00595).
± gives the expanded uncertainty stated by the source.

Test: xn = mol fraction of the nth substance listed
Conditions: 101.3 kPa, Liquid; for viscosity: Concentric cylinders viscometry; for mass density: Vibrating tube method

O=S(=O)(F)[N-]S(=O)(=O)F.[Li+] [lithium bis(fluorosulfonyl)imide] + COC(C)(C)C
viscosity (273.15 K, x1 = 0.1001): 1.178 ± 0.063 mPa·s
viscosity (273.15 K, x1 = 0.2): 5.933 ± 0.13 mPa·s
viscosity (273.15 K, x1 = 0.2497): 19.89 ± 0.57 mPa·s
viscosity (273.15 K, x1 = 0.3002): 109.67 ± 4.2 mPa·s
viscosity (273.15 K, x1 = 0.3498): 775.58 ± 30 mPa·s
mass density (273.15 K, x1 = 0.1001): 882.7 ± 2.7 kg/m3
mass density (273.15 K, x1 = 0.2): 1011.1 ± 3.1 kg/m3
mass density (273.15 K, x1 = 0.2497): 1075.9 ± 3.2 kg/m3
mass density (273.15 K, x1 = 0.3002): 1144 ± 3.5 kg/m3
mass density (273.15 K, x1 = 0.3498): 1215 ± 3.7 kg/m3
mass density (273.15 K, x1 = 0.3995): 1271.1 ± 3.8 kg/m3
viscosity (288.15 K, x1 = 0.0999): 0.9 ± 0.046 mPa·s
viscosity (288.15 K, x1 = 0.2): 3.739 ± 0.059 mPa·s
viscosity (288.15 K, x1 = 0.2498): 11.37 ± 0.2 mPa·s
viscosity (288.15 K, x1 = 0.3001): 43.72 ± 0.97 mPa·s
viscosity (288.15 K, x1 = 0.3498): 227.54 ± 7.7 mPa·s
mass density (288.15 K, x1 = 0.0999): 867.2 ± 2.6 kg/m3
mass density (288.15 K, x1 = 0.2): 995.1 ± 3 kg/m3
mass density (288.15 K, x1 = 0.2498): 1061.6 ± 3.2 kg/m3
mass density (288.15 K, x1 = 0.3001): 1128.3 ± 3.4 kg/m3
mass density (288.15 K, x1 = 0.3498): 1198.9 ± 3.6 kg/m3
mass density (288.15 K, x1 = 0.3995): 1255.8 ± 3.8 kg/m3
viscosity (298.15 K, x1 = 0.1): 0.769 ± 0.039 mPa·s
viscosity (298.15 K, x1 = 0.1996): 2.932 ± 0.045 mPa·s
viscosity (298.15 K, x1 = 0.2494): 7.928 ± 0.14 mPa·s
viscosity (298.15 K, x1 = 0.3): 26.9 ± 0.5 mPa·s
viscosity (298.15 K, x1 = 0.349): 104.9 ± 2.4 mPa·s
mass density (298.15 K, x1 = 0.1): 856.8 ± 2.6 kg/m3
mass density (298.15 K, x1 = 0.1996): 983.3 ± 3 kg/m3
mass density (298.15 K, x1 = 0.2494): 1051.1 ± 3.2 kg/m3
mass density (298.15 K, x1 = 0.3): 1117.9 ± 3.4 kg/m3
mass density (298.15 K, x1 = 0.349): 1182.8 ± 3.6 kg/m3
mass density (298.15 K, x1 = 0.3994): 1246.5 ± 3.8 kg/m3
viscosity (308.15 K, x1 = 0.1001): 0.684 ± 0.036 mPa·s
viscosity (308.15 K, x1 = 0.2): 2.662 ± 0.042 mPa·s
viscosity (308.15 K, x1 = 0.2498): 6.002 ± 0.094 mPa·s
viscosity (308.15 K, x1 = 0.3001): 18.17 ± 0.3 mPa·s
viscosity (308.15 K, x1 = 0.3498): 67.27 ± 1.3 mPa·s
mass density (308.15 K, x1 = 0.1001): 847 ± 2.6 kg/m3
mass density (308.15 K, x1 = 0.2): 980.1 ± 3 kg/m3
mass density (308.15 K, x1 = 0.2498): 1041.2 ± 3.1 kg/m3
mass density (308.15 K, x1 = 0.3001): 1108.5 ± 3.3 kg/m3
mass density (308.15 K, x1 = 0.3498): 1178.2 ± 3.6 kg/m3
mass density (308.15 K, x1 = 0.3995): 1235.4 ± 3.7 kg/m3
